A mixed list of measured activities; the numbers were collected in NIAID ChemDB.

Common to all: whole-cell or culture tests; organism: Mycobacterium smegmatis; read-out: inhibition

Percent inhibition refers to the dose given; in toxicity tests it is the harm to the cells. Neighbouring rows are from separate reports.

CCCCCCCCCCCCNCCNCCCCCCCCCCCC ; strain: ATCC 607 ; dose: 250 µg/mL ; value: 0%
CC(=O)Nc1oc(-c2ccccc2)c(-c2ccccc2)c1C#N ; read by: resazurin ; dose: 50 µg/mL ; value: 38%
CC(C)NC/C=C/CNC(C)C ; strain: ATCC 607 ; dose: 250 µg/mL ; value: 0%
Cc1nc(-c2ccccc2)sc1-c1cn2ccccc2n1 ; strain: mc2155 ; read by: broth dilution / absorbance ; dose: 30 µM ; value: 2.5%
Cc1c(C(=O)NNC(=O)c2ccncc2)nn(-c2ccc(Cl)cc2Cl)c1-c1ccc(Cl)cc1 ; strain: mc2155 ; read by: agar ; dose: 30 µM ; value: 19.21%
Cc1nc(-c2ccc(Cl)cc2)sc1-c1cn2cc(Cl)ccc2n1 ; strain: mc2155 ; read by: broth dilution / absorbance ; dose: 30 µM ; value: 1.8%
CC(C)N1CCN(C(C)C)CC1 ; strain: ATCC 607 ; dose: 1000 µg/mL ; value: 0%
O=C1NC(=S)S/C1=C/c1ccc(-c2cccc(C(F)(F)F)c2)o1 ; read by: broth dilution / turbidity ; dose: 4 µM ; value: 98%
Cc1c(C(=O)NN2CCCCC2)nn(-c2ccc(Cl)cc2Cl)c1-c1ccccc1 ; strain: mc2155 ; read by: agar ; dose: 30 µM ; value: 32.37%
CCCCC(C)NCCNC(C)CCCC ; strain: ATCC 607 ; dose: 500 µg/mL ; value: 100%
Cc1nc(-c2ccc(Cl)cc2)sc1-c1cn2cc(Br)ccc2n1 ; strain: mc2155 ; read by: broth dilution / absorbance ; dose: 30 µM ; value: 4.4%
C[C@H](NCCN[C@H](C)c1ccccc1)c1ccccc1 ; strain: ATCC 607 ; dose: 250 µg/mL ; value: 100%
Cc1ccc(-c2nc(C)c(-c3cn4ccccc4n3)s2)cc1 ; strain: mc2155 ; read by: broth dilution / absorbance ; dose: 30 µM ; value: 12.3%
Cc1c(C(=O)N2CCN(C)CC2)nn(-c2ccc(Cl)cc2Cl)c1-c1ccc(Cl)cc1 ; strain: mc2155 ; read by: agar ; dose: 30 µM ; value: 14.5%
Cc1nc(-c2ccc(F)cc2)sc1-c1cn2cc(Br)ccc2n1 ; strain: mc2155 ; read by: broth dilution / absorbance ; dose: 30 µM ; value: 50.5%
N#Cc1c(NC(=O)c2ccccc2)oc(-c2ccccc2)c1-c1ccccc1 ; read by: resazurin ; dose: 50 µg/mL ; value: 13%

The last 2 rows once more:

{"smiles": "Cc1nc(-c2ccc(F)cc2)sc1-c1cn2cc(Br)ccc2n1", "strain": "mc2155", "read by": "broth dilution / absorbance", "dose": "30 µM", "value": "50.5%"}
{"smiles": "N#Cc1c(NC(=O)c2ccccc2)oc(-c2ccccc2)c1-c1ccccc1", "read by": "resazurin", "dose": "50 µg/mL", "value": "13%"}